Target: SARS-CoV1

ACE2 (from UniProt Q9BYF1) (receptor) gave a Kd of 0.0235 nM, a koff of 0.000232 s⁻¹ and a kon of 9.89e+06 M⁻¹ s⁻¹.
